# Values from PubChem BioAssay AID624099 (ICCB-Longwood, 2012).
# Aim: 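Host factors E2 relies on to silence an HPV18 LCR reporter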 (primary screen)
# System: human C33A cervical carcinoma cells (HPV-negative) stably expressing BPV1 E2 and an HPV18 LCR luciferase reporter
# Knock-down reagent: siRNA pool against human genes, 40 nM
# Time to read-out: 72 h
# Read-out: 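Per-well luciferase luminescence, z-scored on each plate against the plate mean and SD with control wells left out, then averaged across three replicate plates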
# Reading the numbers: mean z-score and z-score: higher = stronger reporter signal, weaker E2 silencing
# Rule for the call: 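Mean z ≥ 2 together with z ≥ 2 in two or more of the three replicates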
# Here is an unselected part of about 21,000 reagents. Of all reagents, 497 (2.4%) got an active call. 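Higher z means weaker E2 silencing; only reporter increases were scored, and knock-downs that hurt cell survival may mask genuine repressor factors.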 Reagents against one gene are numbered here. No sequences are given here.
Target gene,reagent no.,mean z-score,"z-score, replicate A","z-score, replicate B","z-score, replicate C",call
EXOSC3 (exosome component 3),1,0.63,0.62,0.67,0.6,inactive
SLC39A4,1,0.31,0.19,0.32,0.4,inactive
NACA2 (nascent polypeptide associated complex subunit alpha 2),1,1.1,0.88,1.31,1.11,inactive
RGMB (repulsive guidance molecule BMP co-receptor b),1,0.25,0.02,0.49,0.25,inactive
SYDE2 (synapse defective Rho GTPase homolog 2),1,-0.91,-1.06,-0.86,-0.83,inactive
RAD50 (RAD50 double strand break repair protein),1,-0.72,-0.69,-0.75,-0.73,inactive
CYSTM1 (cysteine rich transmembrane module containing 1),1,0.4,0.7,0.25,0.24,inactive
ABCC8 (ATP binding cassette subfamily C member 8),1,-1.41,-1.32,-1.62,-1.3,inactive
LOC389339 (retired record),1,-0.03,-0.23,-0.04,0.18,inactive
PILRA (paired immunoglobin like type 2 receptor alpha),1,0.07,-0.45,-0.15,0.82,inactive
"SRRT (serrate, RNA effector molecule)",1,-0.39,-0.34,-0.31,-0.5,inactive
OFD1 (OFD1 centriole and centriolar satellite protein),1,-0.46,-0.7,-0.33,-0.35,inactive
ARMCX1 (armadillo repeat containing X-linked 1),1,-0.87,-0.35,-1.06,-1.21,inactive
SV2A (synaptic vesicle glycoprotein 2A),1,1.6,1.49,1.21,2.11,inactive

Targets listed so far whose gene name begins with A or a (2):
Target gene,reagent no.,mean z-score,"z-score, replicate A","z-score, replicate B","z-score, replicate C",call
ABCC8 (ATP binding cassette subfamily C member 8),1,-1.41,-1.32,-1.62,-1.3,inactive
ARMCX1 (armadillo repeat containing X-linked 1),1,-0.87,-0.35,-1.06,-1.21,inactive

The list goes on:
Target gene,reagent no.,mean z-score,"z-score, replicate A","z-score, replicate B","z-score, replicate C",call
GADD45GIP1 (GADD45G interacting protein 1),1,-0.45,-0.45,-0.24,-0.67,inactive
CD96 (CD96 molecule),1,2.05,2.04,2.3,1.82,active
ATP6V1C1 (ATPase H+ transporting V1 subunit C1),1,-0.84,-0.8,-0.78,-0.94,inactive
RPL23 (ribosomal protein L23),1,-4.05,-4.06,-4.12,-3.98,inactive
ZSWIM6 (zinc finger SWIM-type containing 6),1,-0.81,-0.63,-0.81,-0.99,inactive
STRA6 (signaling receptor and transporter of retinol STRA6),1,-0.2,0.13,-0.41,-0.32,inactive
LOC391303 (retired record),1,-0.48,-0.48,-0.21,-0.74,inactive
PACS2 (phosphofurin acidic cluster sorting protein 2),1,0.45,0.78,0.03,0.56,inactive
RAD51AP1 (RAD51 associated protein 1),1,0.09,0.76,-0.11,-0.36,inactive
CCL21 (C-C motif chemokine ligand 21),1,-0.23,-0.12,-0.35,-0.22,inactive
LOC100134040,1,-0.62,-0.59,-1.05,-0.24,inactive
DZIP1 (DAZ interacting zinc finger protein 1),1,0.36,0.18,0.7,0.19,inactive
UTS2 (urotensin 2),1,-0.09,-0.15,-0.1,-0.01,inactive
SGMS2 (sphingomyelin synthase 2),1,1.03,1.42,1,0.68,inactive
CLPB (ClpB family mitochondrial disaggregase),1,0.14,0.09,0.46,-0.12,inactive
RPL36P5 (ribosomal protein L36 pseudogene 5),1,-0.03,0.28,-0.06,-0.31,inactive
RPL36P5 (ribosomal protein L36 pseudogene 5),2,0.93,1.2,0.92,0.68,inactive
CHMP4C (charged multivesicular body protein 4C),1,-0.93,-0.71,-1.24,-0.82,inactive
SOD1 (superoxide dismutase 1),1,0.97,0.77,0.85,1.28,inactive
MS4A15 (membrane spanning 4-domains A15),1,0.51,0.64,0.61,0.3,inactive
HMGCLL1 (3-hydroxy-3-methylglutaryl-CoA lyase like 1),1,0.16,0.03,0.08,0.36,inactive
C7orf33 (chromosome 7 open reading frame 33),1,0.71,1.02,0.7,0.41,inactive
CLDN2 (claudin 2),1,0.93,0.91,0.82,1.07,inactive
"OPN1SW (opsin 1, short wave sensitive)",1,-0.82,-0.81,-0.82,-0.82,inactive
TTC23 (tetratricopeptide repeat domain 23),1,2.24,2.21,2.12,2.38,active
